Data as given in PubChem BioAssay AID504761 (Drosophila RNAi Screening Center, 2011).
Screen: 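Genome-wide fly cell screen for genes dengue virus requires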 (primary screen). Cell system: D.Mel-2 cells from Drosophila. Reagent: long dsRNA against Drosophila genes. Treatment: infection with dengue virus type 2; dose and infection time not stated. Measured: 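Cells stained for dengue envelope protein and imaged; percent of infected cells per well on duplicate plates, ranked by infection, with stained nuclei counted for cell number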. Reading the numbers: infection score: higher = more virus-infected cells; cell count: higher = more cells in the well. Hit rule: 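Low infection ranks in the two replicates (chance level up to 0.065) followed by a retest with a 1.5-fold or larger significant decrease, p below 0.05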. Meaning of the calls: active = confirmed: knock-down lowers infection; inactive = not picked or not confirmed.
The screen tested about 22,000 reagents; shown is an unselected part of those with a known target gene and a result. In the full data, 116 (0.52%) got an active call. 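Calls depend on retest data that are not deposited; infection was ranked per plate without normalising between plates; the unit of the infection score is not given.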 Raw values are not corrected between plates. A plus sign joins genes that one reagent is predicted to hit. Reagent sequences are not shown. The record does not give: the amount of reagent, the time to read-out.

| gene | dsRNA | infection score, replicate 1 | infection score, replicate 2 | cell count, replicate 1 | cell count, replicate 2 | outcome |
| --- | --- | --- | --- | --- | --- | --- |
| Cpr35B (Cuticular protein 35B) | DRSC01949 | 3.75 | 4.59 | 6099 | 6542 | inactive |
| Cpr35B (Cuticular protein 35B) | DRSC22797 | 2.36 | 4.68 | 5547 | 5302 | inactive |
| Cpr35B (Cuticular protein 35B) | DRSC26431 | 4.07 | 5.2 | 5891 | 6553 | inactive |
| Rpp25 (Ribonuclease P/MRP subunit p25) | DRSC05002 | 8.11 | 4.48 | 6206 | 6809 | inactive |
| CG8500 | DRSC16434 | 3.84 | 2.35 | 6298 | 6385 | inactive |
| CG8500 | DRSC27083 | 5.45 | 5.72 | 6656 | 6464 | inactive |
| tadr (torn and diminished rhabdomeres) | DRSC03177 | 14.9 | 26.5 | 6596 | 5083 | inactive |
| CG11149 | DRSC02130 | 3.67 | 0.62 | 6509 | 6625 | inactive |
| CG33140 | DRSC06030 | 2.93 | 13.9 | 6582 | 5061 | inactive |
| CG33140 | DRSC26717 | 1.93 | 1.92 | 6637 | 6287 | inactive |

Single entries from above:
Under “infection score, replicate 1”, CG11149 [DRSC02130] reads 3.67
Cpr35B (Cuticular protein 35B) [DRSC22797], cell count, replicate 2 → 5302

The list goes on:
| gene | dsRNA | infection score, replicate 1 | infection score, replicate 2 | cell count, replicate 1 | cell count, replicate 2 | outcome |
| --- | --- | --- | --- | --- | --- | --- |
| CdGAPr (Cd GTPase activating protein-related) | DRSC03289 | 11.6 | 18.8 | 5786 | 2626 | inactive |
| CG12446 | DRSC20618 | 5.2 | 1.61 | 6215 | 5767 | inactive |
| CG32706 + CG6999 | DRSC18412 | 13.2 | 19.7 | 5909 | 5279 | inactive |
| CG32706 + CG6999 | DRSC23954 | 9.5 | 1.93 | 6523 | 6359 | inactive |
| Arl6IP1 (ADP-ribosylation factor-like 6 interacting protein 1) | DRSC14231 | 1.13 | 5.7 | 6553 | 6530 | inactive |
| CG11317 | DRSC14299 | 1.53 | 2.94 | 5506 | 6264 | inactive |
| CR31541 (retired record) | DRSC21876 | 1.28 | 3.67 | 6887 | 6177 | inactive |
| CR31541 (retired record) | DRSC24780 | 0.65 | 1.06 | 6008 | 6042 | inactive |
| CG5715 | DRSC15860 | 1.07 | 2.19 | 6091 | 6129 | inactive |
| CG5715 | DRSC26011 | 5.98 | 15.6 | 4712 | 5784 | inactive |
| Nha2 (Na[+]/H[+] hydrogen antiporter 2) | DRSC14689 | 6.79 | 8.95 | 1266 | 6189 | inactive |
| Nha2 (Na[+]/H[+] hydrogen antiporter 2) | DRSC15619 | 3.76 | 6.59 | 6351 | 6932 | inactive |
| Nha2 (Na[+]/H[+] hydrogen antiporter 2) | DRSC15623 | 6.52 | 2.69 | 5662 | 6427 | inactive |
